Results deposited as PubChem BioAssay AID504761 (Drosophila RNAi Screening Center, 2011)

Assay: 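Fly genes whose silencing reduces dengue virus type 2 infection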 (primary screen)
System: D.Mel-2 cells from Drosophila
Reagents: long dsRNA against Drosophila genes
Challenge: infection with dengue virus type 2; dose and infection time not stated
Detection: 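Cells stained for dengue envelope protein and imaged; percent of infected cells per well on duplicate plates, ranked by infection, with stained nuclei counted for cell number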
Scale: infection score: higher = more virus-infected cells; cell count: higher = more cells in the well
Active means: 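Low infection ranks in the two replicates (chance level up to 0.065) followed by a retest with a 1.5-fold or larger significant decrease, p below 0.05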
Calls: active = confirmed: knock-down lowers infection; inactive = not picked or not confirmed
In all, the deposit lists about 22,000 reagents; below is a random part of those with a known target gene and a result. In the full data, 116 (0.52%) got an active call. 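Calls depend on retest data that are not deposited; infection was ranked per plate without normalising between plates; the unit of the infection score is not given.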 The raw values are shown without normalisation. The numbers tell different reagents against one gene apart. Names joined by + are all predicted targets of the reagent. The record does not give: the amount of reagent, the time to read-out.

| gene knocked down | dsRNA no. | infection score, replicate 1 | infection score, replicate 2 | cell count, replicate 1 | cell count, replicate 2 | call |
| --- | --- | --- | --- | --- | --- | --- |
| Gr43a | 1 | 1.97 | 4.86 | 6153 | 6732 | inactive |
| Rbp | 1 | 2.2 | 5.26 | 5146 | 4997 | inactive |
| CG7943 | 1 | 2.39 | 4.11 | 6372 | 6843 | inactive |
| CG34342 | 1 | 2.07 | 33.9 | 6233 | 4943 | inactive |
| CG34342 | 2 | 0.88 | 18.8 | 6137 | 5530 | inactive |
| CG34342 | 3 | 5.31 | 5.27 | 6276 | 6242 | inactive |
| CG12355 | 1 | 2.11 | 3.41 | 6308 | 6215 | inactive |
| CG12355 | 2 | 1.94 | 3.87 | 6452 | 6457 | inactive |
| CG4570 | 1 | 9.18 | 3.46 | 5894 | 6297 | inactive |
| ACOX1 | 1 | 7.49 | 14.4 | 5607 | 6018 | inactive |
| ACOX1 | 2 | 1.53 | 9.07 | 6470 | 2712 | inactive |
| CG12520 | 1 | 0.47 | 1.42 | 6170 | 5768 | inactive |
| CG8840 | 1 | 24.5 | 41 | 5694 | 5590 | inactive |
| Tusp | 1 | 3.31 | 3.73 | 6650 | 6457 | inactive |
| dpr15 | 1 | 3.13 | 3.71 | 5981 | 5600 | inactive |
| dpr15 | 2 | 12.7 | 3.17 | 6032 | 6872 | inactive |
| dpr15 | 3 | 5.42 | 5.79 | 5684 | 6527 | inactive |

Limited to “cell count, replicate 1”, for 4 of the entries above:
CG34342 #1	6233
CG34342 #2	6137
CG34342 #3	6276
CG12355 #1	6308

Continued:
| gene knocked down | dsRNA no. | infection score, replicate 1 | infection score, replicate 2 | cell count, replicate 1 | cell count, replicate 2 | call |
| --- | --- | --- | --- | --- | --- | --- |
| CG7715 | 1 | 1.33 | 5.59 | 525 | 5819 | inactive |
| CG33494 | 1 | 3.02 | 2.26 | 5930 | 5608 | inactive |
| MFS16 | 1 | 16.4 | 24.4 | 4780 | 5197 | inactive |
| MFS16 | 2 | 1.22 | 6.59 | 6326 | 6286 | inactive |
| Phs | 1 | 19.4 | 20.7 | 5398 | 5833 | inactive |
| Phs | 2 | 26.5 | 8.35 | 5462 | 5904 | inactive |
| Dtwd2 | 1 | 3.6 | 10.7 | 6438 | 6397 | inactive |
| Ser12 | 1 | 1.99 | 2.22 | 5726 | 6434 | inactive |
| CG34430 | 1 | 11.3 | 6.12 | 5058 | 1602 | inactive |
| CG30491 | 1 | 6.61 | 11.3 | 6746 | 6928 | inactive |
| CG30491 | 2 | 4.85 | 2.07 | 6495 | 6482 | inactive |
| CG31639 | 1 | 0.65 | 0.03 | 5373 | 6703 | active |
| CG31639 | 2 | 10.2 | 6.42 | 4449 | 1417 | inactive |
| CG13051 | 1 | 1.15 | 1.6 | 6251 | 6174 | inactive |
| CG42457 (retired record) + cpo | 1 | 6.5 | 4.46 | 6014 | 3474 | inactive |
| CG42457 (retired record) + cpo | 2 | 0.53 | 1.23 | 6360 | 6579 | inactive |
| CG42457 (retired record) + cpo | 3 | 0.97 | 1.67 | 6470 | 6780 | inactive |
| CG10576 | 1 | 9.44 | 15.7 | 4809 | 4708 | inactive |
| Aptx | 1 | 6.62 | 0.34 | 6347 | 6260 | inactive |
| Aptx | 2 | 15.2 | – | 5152 | 398 | inactive |
| jar | 1 | 14.6 | 6.22 | 5651 | 7009 | inactive |
| CG42527 (retired record) + Hr4 | 1 | 2.28 | 10.2 | 5912 | 6532 | inactive |
| CG42527 (retired record) + Hr4 | 2 | 6.32 | 1.85 | 6452 | 6806 | inactive |
| CG42527 (retired record) + Hr4 | 3 | 12.9 | 5.65 | 6177 | 6231 | inactive |
| CG42527 (retired record) + Hr4 | 4 | 11.4 | 22.8 | 5078 | 4086 | inactive |
